Pooled drug test results. Numbers come from NIAID ChemDB, via PubChem.

Common to all: whole-cell or culture tests; organism: Bovine viral diarrhea virus; read-out: EC50

An empty or dashed field is not shown. Neighbouring rows are from separate reports. ECn is the concentration giving n% inhibition of infection, replication or growth.

compound	method	cells	strain or isolate	result
CCCCN1C[C@H](O)[C@@H](O)[C@H](O)[C@H]1CO	cytopathic effect	MDBK		>300 µM
NC(=O)c1ncn([C@@H]2O[C@H](CO)[C@@H](O)[C@H]2O)c1O	plaque count	MDBK		14.2 µM
OC[C@@H]1[C@@H](O)[C@H](O)[C@@H](O)CN1CCCCCCCCCCN1C[C@H](O)[C@@H](O)[C@H](O)[C@H]1CO	plaque count	MDBK		25 µM
CO[C@H]1O[C@@H]2O[C@@]3(C)CC[C@H]4[C@H](C)CC[C@@H]([C@H]1C)[C@@]24OO3	MTS	MDBK	PE515	0.3 µg/mL
CCCCCCCCCN1C[C@H](O)[C@@H](O)[C@H](O)[C@H]1CO	cytopathic effect	MDBK		60 µM
CC(C)(C)CCCCCCCN1C[C@H](O)[C@@H](O)[C@H](O)[C@H]1CO	plaque count	MDBK		30 µM
NC(=O)c1ncn([C@@H]2O[C@H](CO)[C@@H](O)[C@H]2O)n1	plaque count	MDBK		9.1 µM
NC(=O)c1ncn([C@@H]2O[C@H](CO)[C@@H](O)[C@H]2O)n1	cytopathic effect	VERO		5 µg/mL
CCCCN1C[C@H](O)[C@@H](O)[C@H](O)[C@H]1CO	cytopathic effect	MDBK		>1000 µM
CCC(C)CCC[C@H](C)CCN1C[C@H](O)[C@@H](O)[C@H](O)[C@H]1CO	plaque count	MDBK		12 µM
CCCC(=O)O[C@H]1CN2CC[C@H](O)[C@@H]2[C@@H](O)[C@@H]1O	plaque count	MDBK		15.95 µM
OC[C@@H]1[C@@H](O)[C@H](O)[C@@H](O)CN1CCCCc1ccccc1	plaque count	MDBK		40 µM
COc1cc(O)c(CC=C(C)C)c2c1C(=O)CC(c1ccc(O)cc1)O2	cytopathic effect	MDBK	NADL	>2.5 µg/mL
C[C@H]1[C@@H](OC(=O)CCC(=O)O)O[C@@H]2O[C@@]3(C)CC[C@H]4[C@H](C)CC[C@@H]1[C@@]24OO3	MTS	MDBK	PE515	0.07 µg/mL
OC[C@@H]1[C@@H](O)[C@H](O)[C@@H](O)CN1CCCCC1CCCCC1	plaque count	MDBK		3 µM

The last 2 rows once more:

compound	method	cells	strain or isolate	result
C[C@H]1[C@@H](OC(=O)CCC(=O)O)O[C@@H]2O[C@@]3(C)CC[C@H]4[C@H](C)CC[C@@H]1[C@@]24OO3	MTS	MDBK	PE515	0.07 µg/mL
OC[C@@H]1[C@@H](O)[C@H](O)[C@@H](O)CN1CCCCC1CCCCC1	plaque count	MDBK		3 µM